# PubChem BioAssay AID602233 (National Center for Advancing Translational Sciences (NCATS), 2012)
# This is a selection; strong and weak results do not stand in their true shares. The source made the active and inactive calls. Calls come from the whole dose curve; as a rule, active = well fitted inhibition curve with a large enough effect; inconclusive = small, poorly fitted or top-dose-only effect; inactive = no such curve, though single readings can be large or run the other way.
# Biological target: Phosphoglycerate kinase, glycosomal (Trypanosoma brucei brucei) (UniProt P07378)
# Assay: qHTS Assay to Find Inhibitors of Phosphoglycerate Kinase; note: nearly all actives have a fitted effect of over 60% in size
# Conditions: PGK/GAPDH coupled, Kinase-Glo luminescence, 60 min; activity change, negative = inhibition: at 57.5 µM (top of the series) unless noted
# Source text: Several species of the Trypanosomatidae family of parasitic protozoans cause a spectrum of diseases throughout the tropical and subtropical world. Sleeping sickness, caused by two subspecies of Trypanosoma brucei, is endemic to areas of sub-Saharan Africa, while Chagas disease, a manifestation of Trypanosoma cruzi infection, is prevalent throughout Central and South America. In addition, many species of Leishmania are responsible for a range of cutaneous and visceral diseases, causing ulcers, destructive lesions and kalaazar, a lethal infection of the viscera. Collectively, these organisms infect 30 million people worldwide (~500 million live in endemic areas), and account for ~130,000 deaths annually. Given their debilitating and prevalent nature, trypanosomatid parasites impose a heavy medical, economic and social burden on entire populations, primarily in the developing world. The problem is further exacerbated by the fact that existing treatments have progressed little in the past 50 years, and current drugs show high toxicity and poor efficacy. […] Blood-stream stages of T. brucei are entirely dependent on glycolysis as a source of ATP, and the tricarboxylic acid cycle and oxidative phosphorylation are both repressed. Glycolysis in axenically cultured T. cruzi, representing the intracellular pathogenic stage, is also essential for these parasites. […] Previous studies have shown that the glycolytic enzyme, phosphoglycerate kinase (PGK), is a viable target for drugs to kill these parasites. […] NIH Molecular Libraries Probe Production Network [MLPCN] NIH Chemical Genomics Center [NCGC] MLPCN Grant: R03 MH093212 PI Name: Malcolm Walkinshaw, University of Edinburgh
# 3ul of substrate/PGK buffer (columns 1,2,5-48) are dispensed into Greiner white solid bottom 1536-well assay plates; columns 3-4 receive only TEA buffer as 0x PGK controls. Compounds are then transferred via Kalypsys pin tool equipped with 1536-pin array (10nl slotted pins, V&P Scientific, San Diego, CA). Following addition of compound, 1ul of GAPDH (100nM final concentration, all columns) is added to initiate the reaction (this upstream coupling enzyme is necessary for in-well production of PGK substrate, 1,3-bisphosphoglycerate (1,3-BPG), which is unstable and not commercially available). The plates are then incubated at room temperature for 60 minutes. Kinase-Glo Plus reagent is added (2ul) and plates incubated for 10 minutes, before being transferred to a ViewLux high-throughput CCD imager (PerkinElmer) wherein single end-point measurements of luminescence are acquired using a clear filter. All reagents are diluted in an assay buffer consisting of 100mM TEA (pH 7.6), 5mM MgCl2 and 0.01% Tween-20.
# % is set by controls: 0 for no effect and ±100 for the full control effect.
row,Compound,"activity change, negative = inhibition"
1,CCOC(=O)Nc1ccc([As](=O)(O)O)c(O)c1,inactive: -8.49%
2,O=C(O)C(O)c1ccc(N(CCCl)CCCl)cc1 (stereo not given),inactive: 0.926%
3,CC1CCNP(=O)(N(CCCl)CCCl)O1 (stereo not given),inactive
4,O=P(Nc1ccccn1)(c1cccc2ccccc12)c1cccc2ccccc12,inactive: -1.39%
5,Cc1cc(SC(NC=O)C(Cl)(Cl)Cl)ncn1 (stereo not given),inactive: 0.993%
6,O=[N+]([O-])c1ccc(Nc2ccc(Oc3ccc([N+](=O)[O-])cc3[N+](=O)[O-])cc2)c([N+](=O)[O-])c1,inactive: -8.34%
7,CCOC(=O)Nc1cccc([As](=O)(O)O)c1,inactive: 2.46%
8,O=C(O)C(=O)c1ccc(N(CCCl)CCCl)cc1,inactive: -9.17%
9,O=C(COc1ccccc1)OC1CN2CCC1CC2 (stereo not given),inactive
10,COP1(=S)c2c(C)nn(CCC#N)c2N=C(c2ccc(F)cc2)N1C (stereo not given),inactive: -8%
11,CCC(C)N(CC(C)C)C(=S)SC(NC(C)=O)C(Cl)(Cl)Cl (stereo not given),inactive: -9.91%
12,O=C(OC1CN2CCC1CC2)c1cccc([N+](=O)[O-])c1 (stereo not given),inactive
13,CSc1ccc(Nc2c([N+](=O)[O-])cc([N+](=O)[O-])cc2[N+](=O)[O-])cc1,inactive: -6.95%
14,CCOC(=O)c1ccc(NC(=O)C(C)(CCl)SC)cc1 (stereo not given),inactive: -5.19%
15,O=P1(N(CCCl)CCCl)NCCC(C(F)(F)F)O1 (stereo not given),inactive
16,Clc1n[nH]nc1-c1nn[nH][15n]1,inactive
17,CC(C)(C)C(=O)NC(Sc1ncccn1)C(Cl)(Cl)Cl (stereo not given),inactive: 0.626%
18,O=P1(Nc2ccccn2)COc2ccccc2OC1,inactive: -1.5%
19,CCC1=CC2Cc3nc4ccc(Cl)cc4c(N)c3C(C1)C2 (stereo not given),inactive: 9.88%
20,CCOP(=O)(NC(=NC(C)c1ccccc1)NC(C)c1ccccc1)OCC (stereo not given),inactive: 3.51%

row,Compound,"activity change, negative = inhibition"
1,CCOP(=O)(Nc1ccc(C)cn1)OCC,inactive: -1.27%
2,CN(CCCl)Cc1cc(Cl)c(NC2=NCCN2)c(Cl)c1,inactive: -0.978%
3,CC(C)/C=N\N=C(\N)N[N+](=O)[O-],inactive: -0.265%
4,CN(C(=O)Cc1ccc(Cl)c(Cl)c1)[C@@H]1CCCC[C@H]1N1CCCC1,inactive: -1.9%
5,CC1(CBr)Cn2c(nc3ccccc3c2=O)S1 (stereo not given),inactive: 4.48%
6,COc1ccccc1CNC(=O)COC(=O)C(O)(c1ccccc1)c1ccccc1,inactive: -4.81%
7,CN(C)C1(CNC(=O)c2ccc(S(C)(=O)=O)cc2)CCCCC1,inactive: 3.83%
8,O=C(/C=C/c1ccccc1)OC1CN2CCC1CC2 (stereo not given),inactive: -5.36%
9,CCCC1OP(=O)(Nc2ccccc2)OCC1CC (stereo not given),inactive: 0.469%
10,CC1CCC(C(C)C)C(OP(=O)(Nc2ccccn2)c2ccccc2)C1 (stereo not given),inactive: 2.15%
11,Cc1ccc(C(=O)OC2CN3CCC2CC3)cc1 (stereo not given),inactive: -4.46%
12,Nc1cccc([As](=O)(O)c2ccccc2)c1,inactive: -3.09%
13,Cc1ccc(OCC(=O)OC2CN3CCC2CC3)cc1 (stereo not given),inactive
14,O=[As](O)(c1cccs1)c1cccs1,inactive: -8.87%
15,O=P1(Nc2ccc(Br)cn2)COc2ccccc2OC1,inactive: 11.2%
16,NS(=O)(=O)c1cccc(NC(=O)COC(=O)C(O)(c2ccccc2)c2ccccc2)c1,inactive
17,O=P1(Nc2ncccn2)COc2ccccc2OC1,inactive: 2.82%
18,Nc1ccccc1[As](=O)(O)c1ccccc1,inactive: -9.8%
19,O=C(O)COc1ccc([As](=O)(O)O)cc1[N+](=O)[O-],inactive: 0.742%
20,CCOP1(=S)c2c(C)nn(CCC#N)c2N=C(c2ccccc2F)N1C (stereo not given),inactive: -10.2%

row,Compound,"activity change, negative = inhibition"
1,O=P(Nc1nccs1)(c1ccccc1)c1nc2ccccc2s1 (stereo not given),inactive
2,CS(=O)(=O)c1cc([N+](=O)[O-])c2no[n+]([O-])c2c1,inactive: -6.17%
3,N#CCCN(C(=O)COC(=O)C(O)(c1ccccc1)c1ccccc1)c1ccc(F)cc1,inactive: -7.24%
4,CN(C(=O)Cc1ccccc1)[C@@H]1CC[C@]2(CCCO2)C[C@H]1N1CCCC1,inactive: -2.2%
5,CCOP1(=S)c2c(C)nn(CCC#N)c2N=C(c2ccc(F)cc2)N1C (stereo not given),inactive: 0.117%
6,O=[N+]([O-])c1ccc2c(c1)nnn2O,inactive: -6.09%
7,CN(C)C(=O)c1cc([N+](=O)[O-])cc2c1-c1c(cc([N+](=O)[O-])cc1[N+](=O)[O-])C2=O,inactive: -20.6%
8,CN(C(=O)Cc1ccc(Cl)c(Cl)c1)[C@H]1CC[C@@]2(CCCO2)C[C@@H]1N1CCCC1,inactive: 9.27%
9,NC(=O)Nc1ccc([As](=O)(O)O)cc1,inactive: -4.64%
10,Cc1cccc(OCC(=O)OC2CN3CCC2CC3)c1 (stereo not given),inactive: -1.74%
11,O=[As](O)(c1cccc(O)c1)c1cccc(O)c1,inactive: 7.77%
12,O=C(OC1CN2CCC1CC2)c1ccc(Cl)cc1 (stereo not given),inactive: -7.08%
13,O=[As](O)(O)c1cccnc1,inactive: -9.73%
14,COc1cc(C(=O)NCC2(N3CCOCC3)CCCCC2)cc(Cl)c1OC(C)C,inactive
15,CS(=O)(=O)c1ccc(Cl)c(NC(=O)COC(=O)C(O)(c2ccccc2)c2ccccc2)c1,inactive: -3.08%
16,COc1cc(C2NCCC3(OCCO3)C2(C)C)cc(OC)c1OC (stereo not given),inactive
17,CCOP(=O)(Nc1cccc2ccccc12)OCC,inactive: -1.99%
18,Cc1ccc(NCCc2c([N+](=O)[O-])cc([N+](=O)[O-])cc2[N+](=O)[O-])cc1,inactive: -0.12%
19,Nc1cccc2c([As](=O)(O)O)cccc12,inactive: -5.7%
20,CCCOP(=S)(Nc1nc(N)cc(=O)[nH]1)OCCC,inactive: 8.79%
